# Test results: patent US8895752B2, “Alkylsulfonyl-substituted thiazolide compounds” (priority 2007, dated 2014)
# Experiments:
# HBV = HBV antiviral assay in confluent 2.2.15 cell cultures (HBV DNA, quantitative blot hybridization); assay type: cell-based, Hepatitis B Virus; settings: for Selectivity Index Virion: CC50/EC90, extracellular virion DNA; for Selectivity Index RI: CC50/EC90, intracellular HBV RI
# HCV replicon = test: Primary HCV replicon cell assay; assay type: cell-based, Hepatitis C Virus
# Experimental: (§1) Antiviral activity of test compounds was assessed in a 3-day assay using the stably-expressing HCV replicon cell line, AVA5 (sub-genomic CON1, genotype 1b) (Blight et al., 2000) maintained as sub-confluent cultures on 96-well plates as previously described (Okuse et al., 2005). Antiviral activity was determined by blot hybridization analysis of intracellular HCV RNA (normalized to the level of cellular B-actin RNA in each culture sample) and cytotoxicity was assessed by neutral red dye uptake after 3 days of treatment. Additional studies were performed using Huh7 cells containing another HCV replicon, H/FL-Neo, a genotype 1a full length construct (Blight et al., 2003). For studies involving human serum, standard culture medium (which contains 10% fetal bovine serum) and assay conditions were maintained.
# (§2) EC50, EC90 and CC50 values (±standard deviations [S.D.]) were calculated by linear regression analysis using data combined from all treated cultures (Korba and Gerin, 1992; Okuse et al., 2005). […] Selectivity index (S.I.) was calculated as CC50/EC90 for HBV assays and CC50/EC50 for HCV assays. EC90 values were used for calculation of the S.I. in HBV assays since at least a […] depression of HBV DNA levels is typically required to achieve statistical significance in this assay system (Korba and Gerin, 1992). […]
# [1] = test system: HCV replicon, sub-genomic CON1, genotype 1b; test: 3-day HCV replicon assay in AVA5 cells (intracellular HCV RNA, blot hybridization); assay type: cell-based, Hepatitis C Virus; settings: Genotype 1b replicon, CC50/EC50
# Experimental: as §1, §2
# [2] = test system: HCV replicon H/FL-Neo, genotype 1a full length; test: HCV replicon assay in Huh7 cells containing H/FL-Neo; assay type: cell-based, Hepatitis C Virus; settings: Genotype 1a replicon, CC50/EC50
# Experimental: as §1, §2
SMILES,Selectivity Index Virion (HBV),Selectivity Index RI (HBV),further results
"CC(C)(C)C(=O)OCOP(=O)(COCCn1cnc2c(N)ncnc21)OCOC(=O)C(C)(C)C [ADV, adefovir dipovoxil]",>100,,
"CS(=O)(=O)c1cnc(NC(=O)c2ccccc2O)s1 [Compound 6, 2-hydroxy-N-(5-(methylsulfonyl)thiazol-2-yl)benzamide]",,,SI (HCV replicon): 29.0
CS(=O)(=O)c1cnc(NC(=O)c2ccccc2[O-])s1.[Na+] [Compound 75],,,SI (HCV replicon): 25.0
O=C(Nc1ncc(Br)s1)c1ccccc1O [RM4832],>25,>12,Selectivity Index [1]: 20; Selectivity Index [2]: 31
O=C(Nc1ncc(Cl)s1)c1ccccc1O [RM4848],>58,,
Cc1ccc(O)c(C(=O)Nc2ncc(Cl)s2)c1 [RM4850],>120,>51,
Cc1ccc(C(=O)Nc2ncc(Cl)s2)c(O)c1 [RM4852],>30,>16,
